Among the data in patent US20090311693A1 are decrease of basal [Ca2+]i in MDA-MB-435s cells after 24 h of 10 nM apamin values, retold here.

This assay concerns the target SK2 or SK3 channels (apamin-sensitive channels of MDA-MB-435s cells). Briefly: cell-based or functional assay.

As to “apamin (from UniProt P01500 28-45) (peptide)”, the decrease of basal [Ca2+]i in MDA-MB-435s cells after 24 h of 10 nM apamin is 46%.
